The values below come from publication PMC1197287 (PLoS Biology, 2005).

Protein sequences, listed by entry. Tags and fused reporters are not part of them. Residues count along the entry.
UniProt P0C6X9, 3334-3635 limits assumed: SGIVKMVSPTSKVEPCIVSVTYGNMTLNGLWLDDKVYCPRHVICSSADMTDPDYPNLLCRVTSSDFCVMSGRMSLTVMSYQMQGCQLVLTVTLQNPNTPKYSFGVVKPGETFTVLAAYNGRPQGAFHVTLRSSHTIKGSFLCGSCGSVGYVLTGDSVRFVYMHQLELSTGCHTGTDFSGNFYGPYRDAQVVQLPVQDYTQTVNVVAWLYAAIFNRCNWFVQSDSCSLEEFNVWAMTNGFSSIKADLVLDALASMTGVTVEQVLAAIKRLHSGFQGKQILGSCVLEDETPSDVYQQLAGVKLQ
UniProt Q98VG9, 2904-3205 limits assumed: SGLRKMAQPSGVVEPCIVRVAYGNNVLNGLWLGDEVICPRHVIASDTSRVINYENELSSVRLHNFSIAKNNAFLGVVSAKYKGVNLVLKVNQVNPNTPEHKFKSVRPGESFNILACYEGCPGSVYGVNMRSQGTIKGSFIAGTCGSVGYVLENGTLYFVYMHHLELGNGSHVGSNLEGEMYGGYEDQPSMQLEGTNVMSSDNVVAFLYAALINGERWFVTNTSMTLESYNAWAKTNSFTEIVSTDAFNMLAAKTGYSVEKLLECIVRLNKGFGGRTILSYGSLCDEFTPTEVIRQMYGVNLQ
UniProt P0C6Y5, 2879-3180 limits assumed: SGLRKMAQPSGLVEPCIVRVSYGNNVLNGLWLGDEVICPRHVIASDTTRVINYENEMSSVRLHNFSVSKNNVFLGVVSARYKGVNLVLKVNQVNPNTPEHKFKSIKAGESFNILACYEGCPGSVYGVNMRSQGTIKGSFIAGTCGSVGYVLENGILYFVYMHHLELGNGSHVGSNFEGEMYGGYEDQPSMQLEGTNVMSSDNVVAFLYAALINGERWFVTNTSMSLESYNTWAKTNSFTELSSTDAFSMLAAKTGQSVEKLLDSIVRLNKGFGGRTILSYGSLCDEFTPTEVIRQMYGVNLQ
UniProt P0C6X1, 2966-3265 limits assumed: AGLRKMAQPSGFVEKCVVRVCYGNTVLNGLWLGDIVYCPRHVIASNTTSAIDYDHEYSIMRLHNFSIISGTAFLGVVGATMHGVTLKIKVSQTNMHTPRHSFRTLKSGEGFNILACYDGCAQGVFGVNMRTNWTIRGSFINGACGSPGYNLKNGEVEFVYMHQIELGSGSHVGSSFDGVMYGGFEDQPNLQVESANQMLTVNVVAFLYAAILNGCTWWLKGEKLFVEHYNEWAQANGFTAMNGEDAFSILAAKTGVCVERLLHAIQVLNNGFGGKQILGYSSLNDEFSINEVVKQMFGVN

Common to all, as to format: biochemical
For assay [1], the system named is CoV M^pros. As to the kind of experiment: M^pro inhibition assays, stated across several CoV M^pros.
Assay [2] has as its target SARS-CoV M^pro (Severe acute respiratory syndrome coronavirus, UniProt P0C6X7). As to the kind of experiment: M^pro inhibition assay (continuous fluorogenic kinetic assay).
Assay [3] deals with MHV M^pro (Murine coronavirus, UniProt P0C6X9). The assay is described as above. Conditions: approximation of k3/Ki, error less than 20%.
Assay [4] addresses FIPV M^pro (Feline coronavirus, UniProt Q98VG9). The assay is described as above. Conditions: approximation of k3/Ki, error less than 20%.
The target in assay [5] is TGEV M^pro (Porcine transmissible gastroenteritis coronavirus, UniProt P0C6Y5). The description is as above.
The target in assay [6] is HCoV-229E M^pro (Human coronavirus 229E, UniProt P0C6X1). The assay is described as above.
Assay [7] deals with IBV M^pro (Avian infectious bronchitis virus, UniProt P0C6Y3). The assay is described as above.

With `CCOC(=O)/C=C/[C@H](C[C@@H]1CCNC1=O)NC(=O)[C@H](CC(C)C)NC(=O)[C@@H](NC(=O)[C@@H](NC(=O)c1ccco1)C(C)C)C(C)C`, in assay [1] (preliminary inhibition assays, TGEV, HCoV-229E, FIPV, HCoV-NL63, MHV, HCoV-HKU1, SARS-CoV, IBV), the “in vitro inactivation of all CoV M^pros tested” value is given as “fast in vitro inactivation”. The “k3, range over CoV M^pros” value in assay [1] (range over the M^pros of Table 1) is 2.6–19.5 × 10^−3s^−1. For the same molecule, the Ki in assay [1] (read-out: Ki, range over CoV M^pros, range over the M^pros of Table 1) is 0.9 to 6.7 µM; in assay [2], 6.7 µM; in assay [5], 7.8 µM; in assay [6], 0.9 µM; in assay [7] it was 4.9 µM. For the same molecule, the k3 in assay [2] (inactivation rate constant) was 2.6 ± 0.2 × 10^−3s^−1; in assay [5] (inactivation rate constant), 19.5 ± 0.9 × 10^−3s^−1; in assay [6] (inactivation rate constant), 12.1 ± 0.7 × 10^−3s^−1; in assay [7] (inactivation rate constant), 5.6 ± 0.1 × 10^−3s^−1. In addition, the “kobs/[I]” value in assay [3] was 660 M⁻¹ s⁻¹; in assay [4], 23,000 M^−1•s^−1.

For orientation: Ki means a dissociation constant, usually derived from enzyme kinetics or from competition with a known ligand.
